Results of unrelated studies side by side (data: NIAID ChemDB).

Common to all: growth or infection tests; organism: Hepatitis C virus; cells: Huh7; read by: replicon; endpoint: EC50

Two numbers with a dash give a range or band. ECn is the concentration giving n% inhibition of infection, replication or growth. Blank or dashed fields: not listed here. Rows are shuffled and stem from different studies.

compound	strain or isolate	result
CCN(c1cc2oc(-c3ccc(F)cc3)c(C(=O)NC)c2cc1OCc1cccc2c1C(=O)OC(C)(C)O2)S(C)(=O)=O	-	<1 µM
O=C1CC(c2ccccc2)CC2=C1C(c1ccc(Cl)cc1)Nc1ccc(C(=O)c3ccccc3)cc1N2	-	4.517 µM
COc1cccc(CC(=O)N/N=C/c2ccncc2OS(=O)(=O)c2ccc(C)cc2)c1	-	<5 µM
CNC(=O)c1c(-c2ccc(F)cc2)oc2cc(S(=O)(=O)N(C)C)c(OC(C)C)cc12	-	<30 µM
CCN(CC)c1ccc(C2CC(=O)C3=C(C2)Nc2ccccc2N(C(C)=O)C3c2ccc(OC)cc2)cc1	-	>32 µM
C=C[C@@H]1C[C@]1(NC(=O)[C@@H]1C[C@@H](Oc2cc(-c3ccccc3)nc3cc(OC)ccc23)CN1C(=O)[C@@H](NC(=O)OC(C)(C)C)C(C)(C)C)C(=O)NS(=O)(=O)c1ccc(C)cc1	1b	<0.05 µM
CCC[C@H](NC(=O)[C@@H]1C2CCCC2CN1C(=O)[C@@H](NC(=O)[C@@H](NC(=O)c1cnccn1)C1CCCCC1)C(C)(C)C)C(=O)C(=O)N[C@@H](C)c1ccncc1	-	0.31 µM
CC1=CN(c2ccc([N+](=O)[O-])cc2)[C@@H](c2ccc(Cl)cc2)[C@@H](C)C1=O	1b	22.7 µM
CNC(=O)c1c(-c2cc(F)c(F)cc2F)oc2ccc(OC)cc12	-	<30 µM
O=C(O)c1ccc2nc(-c3ccccn3)c(-c3ccccn3)nc2c1	-	>50 µM
CNC(=O)c1c(-c2ccc(F)cc2)oc2cc(-c3ccoc3)c(OC(C)C)cc12	-	<10 µM
COC(=O)[C@H](Cc1c[nH]c2ccccc12)NC(=O)c1ccc2nc(-c3ccco3)c(-c3ccco3)nc2c1	-	10–50 µM
C=C[C@@H]1C[C@]1(NC(=O)[C@@H]1C[C@@H](Oc2cc(-c3ccccc3)nc3cc(OC)ccc23)CN1C(=O)[C@@H](NS(=O)(=O)c1ccc(F)cc1)C(C)(C)C)C(=O)NS(=O)(=O)C1CC1	1b	<0.5 µM
O=C(O)c1ccc2nc(-c3ccc(Br)cc3)c(-c3ccc(Br)cc3)nc2c1	-	10–50 µM
C=C[C@@H]1C[C@]1(NC(=O)[C@@H]1C[C@@H](Oc2cc(-c3ccccc3)nc3cc(OC)ccc23)CN1C(=O)[C@@H](NC(=O)OC(C)(C)C)C(C)(C)C)C(=O)NS(=O)(=O)c1ccc(Br)cc1	1b	<0.5 µM
CC1(C)CC(=O)C2=C(C1)Nc1cccc(Br)c1NC2c1ccc(Cl)cc1Cl	-	5.175 µM
CNC(=O)c1c(-c2ccc(F)cc2)oc2cc(N(C)S(C)(=O)=O)c(OCC(C)O)cc12	-	<1 µM
Fc1ccc(Cl)cc1-c1nc(Nc2ccncc2I)c2cccnc2n1	-	0.48 µM
C=C[C@@H]1C[C@]1(NC(=O)[C@@H]1C[C@@H](Oc2cc(-c3ccccc3)nc3cc(OC)ccc23)CN1C(=O)[C@@H](NC(=O)C(F)(F)F)C(C)(C)C)C(=O)NS(=O)(=O)C1CC1	1b	<0.5 µM
Cc1ccc2c(c1)NC(c1ccc(C(C)C)cc1)C1=C(CC(C)(C)CC1=O)N2	-	>25 µM
O=C(Cc1ccccc1F)N/N=C/c1ccccc1OS(=O)(=O)c1ccc(C(F)(F)F)cc1	-	<5 µM
Nc1ccc2c(Nc3ccncc3)nc(-c3cc(Cl)ccc3F)nc2n1	-	2.2 µM
C=CCOC(=O)N[C@H](C(=O)N1C[C@H](Oc2cc(-c3ccccc3)nc3cc(OC)ccc23)C[C@H]1C(=O)N[C@]1(C(=O)NS(=O)(=O)C2CC2)C[C@H]1C=C)C(C)(C)C	1b	<0.05 µM
CNC(=O)c1c(-c2ccc(F)cc2)oc2cc(NCC(O)CO)c(OC(C)C)cc12	-	<10 µM
Cc1ccc(OS(=O)(=O)c2ccc(C(F)(F)F)cc2)c(/C=N/NC(=O)Cc2cccc(Cl)c2)c1	-	<5 µM
CCC[C@H](NC(=O)[C@@H]1C2CCCC2CN1C(=O)[C@@H](NC(=O)[C@@H](NC(=O)c1cnccn1)C(C)(C)C)C(C)(C)C)C(=O)C(=O)NC1CC1	-	1 µM
COC(=O)[C@H](Cc1c[nH]c2ccccc12)NC(=O)c1ccc2nc(-c3ccccn3)c(-c3ccccn3)nc2c1	-	>50 µM
CCCC(NC(=O)[C@@H]1C2CCCC2CN1C(=O)[C@@H](NC(=O)[C@@H](NC(=O)c1cnccn1)C1CCCCC1)C(C)(C)C)C(=O)C(=O)N[C@@H](C)CC	-	0.89 µM
CNC(=O)c1c(-c2cccs2)oc2ccc(OC)cc12	-	<30 µM
COc1ccc2c(O[C@@H]3C[C@H]4C(=O)N[C@]5(C(=O)O)C[C@H]5/C=C\CCCCC[C@H](NC(=O)OC5CCCC5)C(=O)N4C3)cc(-c3csc(NC(C)C)n3)nc2c1	-	0.003 µM
CC(=O)N1c2ccccc2NC2=C(C(=O)CC(c3ccccc3OCc3ccccc3)C2)C1c1ccccc1	-	>32 µM
CNC(=O)c1c(-c2ccc(F)cc2)oc2cc(S(=O)(=O)NC3CC3)c(OC(C)C)cc12	-	<10 µM
COc1cccc(CC(=O)N/N=C/c2ccccc2OS(=O)(=O)c2ccc(-n3cccn3)cc2)c1	-	<5 µM
C=C[C@@H]1C[C@]1(NC(=O)[C@@H]1C[C@@H](Oc2cc(-c3ccccc3)nc3cc(OC)ccc23)CN1C(=O)[C@@H](NC(=O)OC(C)(C)C)C1CCCC1)C(=O)NS(=O)(=O)C1CC1	1b	<0.05 µM
CCOC(=O)c1cnccc1Nc1nc(-c2cc(Cl)ccc2F)nc2ncccc12	-	1.1 µM
O=C(Cc1ccc(Cl)cc1)N/N=C/c1ccccc1OS(=O)(=O)c1ccc(C(F)(F)F)cc1	-	<5 µM
CN(C)CCNc1ccc2c(Nc3ccncc3F)nc(-c3cc(Cl)ccc3F)nc2n1	-	>10 µM
CNC(=O)c1c(-c2ccc(F)cc2)oc2cc(C(O)C(C)C)c(OC(C)C)cc12	-	<1 µM
CCCNC(=O)N[C@H](C(=O)N1C[C@H](Oc2cc(-c3ccccc3)nc3cc(OC)ccc23)C[C@H]1C(=O)N[C@]1(C(=O)NS(=O)(=O)C2CC2)C[C@H]1CC)C(C)C	1b	<0.05 µM
Clc1cccc(-c2nc(Nc3ccncc3)c3ccc(NCCN4CCCCC4)nc3n2)c1	-	1.3 µM

5 of the rows above, restated:

compound	strain or isolate	result
C=C[C@@H]1C[C@]1(NC(=O)[C@@H]1C[C@@H](Oc2cc(-c3ccccc3)nc3cc(OC)ccc23)CN1C(=O)[C@@H](NS(=O)(=O)c1ccc(F)cc1)C(C)(C)C)C(=O)NS(=O)(=O)C1CC1	1b	<0.5 µM
CNC(=O)c1c(-c2ccc(F)cc2)oc2cc(N(C)S(C)(=O)=O)c(OCC(C)O)cc12	-	<1 µM
COc1cccc(CC(=O)N/N=C/c2ccccc2OS(=O)(=O)c2ccc(-n3cccn3)cc2)c1	-	<5 µM
O=C(Cc1ccccc1F)N/N=C/c1ccccc1OS(=O)(=O)c1ccc(C(F)(F)F)cc1	-	<5 µM
CCOC(=O)c1cnccc1Nc1nc(-c2cc(Cl)ccc2F)nc2ncccc12	-	1.1 µM